Some of the results follow. Inconclusive results are not listed. Some structures show a salt or complex split into parts, the way the source records it. Calls of active or inactive are those of the source. Cut-off read from the data, not from the text of the source: inconclusive = inhibition above about 70% without an active follow-up result; inactive = below that.

The nature of the experiment: M. tuberculosis growth inhibition, HTS (AID 449762).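 Note: bacterial growth assessed after seven days of incubation.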 To be noted: M. tuberculosis H37Rv growth inhibition, 7H9 media; at 25 µM; active compounds read high.
For `O=C(OC1CN2CCC1CC2)c1ccc([N+](=O)[O-])cc1` (stereo not drawn), the inhibition (in general, the drop in the measured response relative to a control, in per cent) is inactive: -1.84%.
Take `COc1ccc2c(c1O)-c1c(O)c(OC)cc3c1[C@H](C2)[N+](C)(C)CC3.O=[N+]([O-])c1cc([N+](=O)[O-])c([O-])c([N+](=O)[O-])c1[O-]`: the inhibition is inactive: 14.9%.
With `COc1ccccc1OP(C)(=O)Nc1ccc(Br)cc1` (stereo not drawn), the inhibition was inactive: 13.8%.
Take `CN(C)CCOC(=O)C(O)(c1ccccc1)C1CCCC1` (stereo not drawn): the inhibition was inactive: -5.13%.
In the case of `COc1ccc(OP(C)(=O)Nc2ccccn2)cc1` (stereo not drawn) it was inactive: 5.71%; in that of `Cc1c(NP(C)(=O)Oc2ccc(C(C)C)cc2)c(=O)n(-c2ccccc2)n1C` (stereo not drawn), inactive: 5.22%.
Take `CCc1ccc(OP(C)(=O)O)cc1`: the inhibition is inactive: -0.22%.
With `COc1ccccc1OP(C)(=O)Nc1ccc(C)cc1C` (stereo not drawn), the inhibition is inactive: 7.15%.
Turning to `CP(=O)(Nc1ccccn1)Oc1ccccc1` (stereo not drawn), the inhibition was inactive: -5.5%.
As for `Cc1cc(C)cc(OP(C)(=O)Nc2cccc(C(F)(F)F)c2)c1` (stereo not drawn), the inhibition was inactive: -1%.
As for `COc1ccc(OP(C)(=O)Nc2ccccc2Br)cc1` (stereo not drawn), the inhibition was inactive: 3.48%.
As to `COc1ccccc1OP(C)(=O)Nc1ccc(C)c(C)c1` (stereo not drawn), the inhibition was inactive: -4.56%.
On to `Cc1nc2ccc3ccccc3c2o1.O=[N+]([O-])c1cc([N+](=O)[O-])c(O)c([N+](=O)[O-])c1`, for which the inhibition was inactive: -4.28%.
Regarding `CP(=O)(OCCOc1ccccc1)OCCOc1ccccc1`, the inhibition was inactive: 0.5%.
Consider `CP(=O)(Nc1ccc(Cl)cc1Cl)Oc1ccccc1` (stereo not drawn), for which the inhibition was inactive: 6.62%.
On to `Nc1ccc2c(ccc3cccnc32)n1.O=[N+]([O-])c1cc([N+](=O)[O-])c(O)c([N+](=O)[O-])c1`, for which the inhibition is inactive: 6.56%.
In the case of `CP(=O)(OC12CC3CC(CC(C3)C1)C2)OC12CC3CC(CC(C3)C1)C2`, the inhibition is inactive: -4.86%.
`CCOC(=O)c1ccc(NP(C)(=O)Oc2ccc(Cl)cc2)cc1` (stereo not drawn): the inhibition is inactive: 5%.
In the case of `COc1ccc(OP(C)(=O)Nc2ccc(Br)cc2)cc1` (stereo not drawn), the inhibition is inactive: 11.1%.
Regarding `CCN(CC)CC(O)COC(=O)C(O)(c1ccccc1)C1CCCCC1` (stereo not drawn), the inhibition is inactive: -5.88%.
For `CCc1ccc(OP(C)(=O)Nc2cccnc2)cc1` (stereo not drawn), the inhibition is inactive: -3.17%.
As to `CP(=O)(Oc1ccccc1)N1CCOC1=O` (stereo not drawn), the inhibition was inactive: 2.66%.
For the compound `O=C(OCCCN1CCCC1)C(O)(c1ccccc1)C1CCCCC1` (stereo not drawn), the inhibition was inactive: -4.87%.
On to `COc1ccccc1OP(C)(=O)Nc1c(C)n(C)n(-c2ccccc2)c1=O` (stereo not drawn), for which the inhibition was inactive: -8.09%.
The same measure for `CP(=O)(Nc1ccc(Cl)cc1)Oc1ccc(F)cc1` (stereo not drawn): inactive: 2.94%; for `CC(C)(C)c1ccc(OP(C)(=O)O)cc1`: inactive: -11.7%; for `COc1ccccc1OP(C)(=O)Nc1ccccc1Br` (stereo not drawn): inactive: -1.22%.
With `CN(C)C(=O)c1c([N+](=O)[O-])cc([N+](=O)[O-])cc1[N+](=O)[O-]`, the inhibition was inactive: 0.08%.

Source of the values: PubChem BioAssay AID449762 (Southern Research Specialized Biocontainment Screening …, 2010).
